Measured values from several laboratories, pooled; numbers as filed in NIAID ChemDB.

Common to all: tests on isolated targets; organism: HIV-1; target: Reverse transcriptase; read-out: fold resistance

Lines come from different laboratories, so protocols vary.

{"compound": "C/C=C/CSc1cc(NC(=S)c2ccsc2C)ccc1Cl", "changes": "RT-Y188L", "value": ">13.33"}
{"compound": "Cc1c(Cc2c(F)cccc2F)nc(Sc2ccc(Cl)cc2)[nH]c1=O", "changes": "Y181I", "value": ">18"}
{"compound": "CCc1c(Sc2ccccn2)n(COCc2ccccc2)c(=O)[nH]c1=O", "changes": "RT-V106A", "value": "5"}
{"compound": "Cc1c(Cc2c(Cl)cccc2Cl)nc(Sc2ccc(F)cc2F)[nH]c1=O", "changes": "Y181I", "value": ">40"}
{"compound": "CCNc1cccnc1N1CCN(C(=O)c2cc3cc4c(cc3[nH]2)OCO4)CC1", "strain or isolate": "IIIB", "changes": "RT-P236L", "value": "50.2"}
{"compound": "Cc1cn([C@H]2C=C[C@@H](COP(=O)(O)OP(=O)(O)OP(=O)(O)O)O2)c(=O)[nH]c1=O", "changes": "RT-H208Y", "value": "2.8"}
{"compound": "CCOc1ccccc1N1CCN(C(=O)c2cc3cc4c(cc3[nH]2)OCO4)CC1", "strain or isolate": "IIIB", "changes": "RT-Y181C", "value": ">9"}
{"compound": "CNc1ccc(Cl)cc1S(=O)(=O)c1ccccc1[N+](=O)[O-]", "changes": "RT-Y188L", "value": "9.09"}
{"compound": "Cc1cn([C@@H]2O[C@H](CO[Si](C)(C)C(C)(C)C)C3(OS(=O)(=O)C=C3N)[C@H]2O[Si](C)(C)C(C)(C)C)c(=O)n(C)c1=O", "changes": "RT-E138K", "value": "38.5"}
{"compound": "Nc1nc2c(ncn2[C@@H]2C=C[C@H](COP(=O)(O)OP(=O)(O)OP(=O)(O)O)C2)c(=O)[nH]1", "changes": "RT-M184V", "value": "3.03"}
{"compound": "Cc1c(Cc2c(Cl)cccc2Cl)nc(Sc2ccccc2)[nH]c1=O", "changes": "RT-K103N", "value": ">11"}
{"compound": "Cc1occc1C(=S)Nc1ccc(Cl)c(/C=N/OC(C)(C)C)c1", "changes": "RT-Y188L", "value": "17.27"}
{"compound": "Cc1c(Sc2ccccc2)n(COCCO)c(=O)[nH]c1=O", "changes": "RT-V179D", "value": "2"}
{"compound": "COc1ccc(Sc2nc(Cc3c(Cl)cccc3Cl)c(C)c(=O)[nH]2)cn1", "changes": "RT-K103N", "value": ">114"}
{"compound": "CC(C)Nc1cccnc1N1CCN(C(=O)c2cc3cc4c(cc3[nH]2)OCO4)CC1", "strain or isolate": "IIIB", "changes": "RT-Y181C", "value": "19"}
{"compound": "CN(C)P(=O)(c1ccccc1)c1c(C(N)=O)[nH]c2ccc(Cl)cc12", "changes": "RT-K103N Y181C", "value": ">3.57"}
{"compound": "Nc1nc2c(ncn2[C@H]2C=C[C@@H](COP(=O)(O)OP(=O)(O)OP(=O)(O)O)C2)c(=O)[nH]1", "changes": "RT-M184V", "value": "1.47"}
{"compound": "CC(C)=CCOc1cc(NC(=S)c2ccoc2C)ccc1Cl", "changes": "RT-L100I", "value": "3.19"}

For reference, 2 entries again:

compound,strain or isolate,changes,value
Cc1c(Cc2c(F)cccc2F)nc(Sc2ccc(Cl)cc2)[nH]c1=O,-,Y181I,>18
Cc1cn([C@H]2C=C[C@@H](COP(=O)(O)OP(=O)(O)OP(=O)(O)O)O2)c(=O)[nH]c1=O,-,RT-H208Y,2.8

Fold resistance: result on the changed form divided by that on wild type. Blank or dashed fields: not listed here.